# Source: PubChem BioAssay AID540336 (Broad Institute, 2011)
# The chains behind the UniProt entries cited, without tags or fusion partners.
# UniProt Q5AAJ8, whole entry, looked up: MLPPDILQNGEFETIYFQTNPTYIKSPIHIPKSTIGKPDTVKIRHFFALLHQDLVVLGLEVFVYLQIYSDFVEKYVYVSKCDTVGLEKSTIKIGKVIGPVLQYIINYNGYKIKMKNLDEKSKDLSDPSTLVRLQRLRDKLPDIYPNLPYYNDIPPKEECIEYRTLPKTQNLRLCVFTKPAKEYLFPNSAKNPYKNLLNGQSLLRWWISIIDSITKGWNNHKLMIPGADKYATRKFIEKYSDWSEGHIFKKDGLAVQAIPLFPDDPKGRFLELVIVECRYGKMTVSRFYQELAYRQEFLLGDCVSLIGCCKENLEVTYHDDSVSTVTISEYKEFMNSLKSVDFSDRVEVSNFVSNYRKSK
# This is a selection; strong and weak results do not stand in their true shares. Activity calls are given as the source filed them.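 The calls were made as follows: active = inhibition of at least 50% in every replicate; inconclusive = best replicate reaches 50% inhibition but some replicates fall short; inactive = the rest.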
# Molecular target: Histone acetyltransferase RTT109 (Candida albicans (strain SC5314 / ATCC MYA-2876)) (UniProt Q5AAJ8)
# Experiment: inhibitors of C. albicans Rtt109/Vps75 HAT, primary screen, biochemical, ThioGlo CoA-SH fluorescence, plate reader (AID 540336)
# Settings: purified Rtt109/Vps75, ThioGlo CoA-SH fluorescence, 4 h; at 34.9 µM; stronger effect = higher value
row,SMILES,inhibition
1,C(Cc1nn[nH]n1)Cc1nn[nH]n1,inactive: -4.94%
2,O=C(OC1CN2CCC1CC2)c1cccc(Cl)c1 (centres undefined),inactive: -19.6%
3,O=[N+]([O-])c1ncn(CCn2cnc([N+](=O)[O-])n2)n1,inactive: 18.1%
4,CC(=O)NC(SC(=S)N(C)C)C(Cl)(Cl)Cl (centres undefined),inactive: 0.139%
5,O=[N+]([O-])c1ccc(O)c(/C=N/Nc2ccc([N+](=O)[O-])cc2[N+](=O)[O-])c1,inactive: -0.542%
6,O=[As](O)(c1ccccc1)c1ccc(O)cc1,inactive: 1.09%
7,C[C@H]1OP(=O)(Oc2ccccc2)[C@H](O)[C@H](O)[C@H]1N=[N+]=[N-] (some centres undefined),inactive: -7.53%
8,O=P(Nc1nc2ccccc2s1)(c1ccccc1)c1ccccc1,inactive: -2.67%
9,COc1ccc(N)c([N+](=O)[O-])c1[N+](=O)[O-],inactive: 2.49%
10,CN(C)C1(CNC(=O)c2ccc(Cl)c(S(N)(=O)=O)c2)CCCCC1,inactive: 7.54%
11,O=P(Nc1ccccn1)(c1ccc(Br)cc1)c1ccc(Br)cc1,inactive: -4.43%
12,c1nnnn1CCn1cnnn1,inactive: -4.8%
13,O=P(Nc1nccs1)(c1ccccc1)c1ccccc1,inactive: 3.8%
14,CC(C)C(=O)NC(Sc1ccccc1)C(Cl)(Cl)Cl (centres undefined),inactive: 4.23%
15,CC1(CBr)Cn2c(nc3ccccc3c2=O)S1 (centres undefined),inactive: 7.96%
16,CN(C(=O)Cc1ccc(Cl)c(Cl)c1)[C@@H]1CCCC[C@H]1N1CCCC1,inactive: -0.646%
17,CC(C)/C=N\N=C(\N)N[N+](=O)[O-],inactive: -13.3%
18,CC(C)(C)C(=O)NC(Sc1ncccn1)C(Cl)(Cl)Cl (centres undefined),inactive: -0.691%
19,CCOP(=O)(Nc1ccc(C)cn1)OCC,inactive: -4.46%
20,CCOP(=O)(NC(=NC(C)c1ccccc1)NC(C)c1ccccc1)OCC (centres undefined),inactive: 1.68%
21,CCC1=CC2Cc3nc4ccc(Cl)cc4c(N)c3C(C1)C2 (centres undefined),inactive: 3.3%
22,O=P1(Nc2ccccn2)COc2ccccc2OC1,inactive: -1.64%

row,SMILES,inhibition
1,NS(=O)(=O)c1cccc(NC(=O)COC(=O)C(O)(c2ccccc2)c2ccccc2)c1,inactive: 1.8%
2,O=P1(Nc2ccc(Br)cn2)COc2ccccc2OC1,inactive: -1.41%
3,O=[As](O)(c1cccs1)c1cccs1,inactive: 0.621%
4,Cc1ccc(OCC(=O)OC2CN3CCC2CC3)cc1 (centres undefined),inactive: -0.189%
5,Nc1cccc([As](=O)(O)c2ccccc2)c1,inactive: 4.56%
6,O=P1(Nc2ncccn2)COc2ccccc2OC1,inactive: 6.47%
7,CCCC1OP(=O)(Nc2ccccc2)OCC1CC (centres undefined),inactive: -2.47%
8,O=C(/C=C/c1ccccc1)OC1CN2CCC1CC2 (centres undefined),inactive: -5.87%
9,CN(C)C1(CNC(=O)c2ccc(S(C)(=O)=O)cc2)CCCCC1,inactive: -5.63%
10,Cc1ccc(C(=O)OC2CN3CCC2CC3)cc1 (centres undefined),inactive: 5.97%
11,CC1CCC(C(C)C)C(OP(=O)(Nc2ccccn2)c2ccccc2)C1 (centres undefined),active: 52.6%
12,Cc1nn(-c2ccccc2)c2c1P(=O)(N1CCOCC1)N(C)C(c1ccccc1)=N2 (centres undefined),inactive: 11.3%
13,CN(C(=O)Cc1ccc(Cl)c(Cl)c1)[C@H]1CC[C@@]2(CCCO2)C[C@@H]1N1CCCC1,inactive: -9.15%
14,CN(C)C(=O)c1cc([N+](=O)[O-])cc2c1-c1c(cc([N+](=O)[O-])cc1[N+](=O)[O-])C2=O,inactive: -6%
15,O=[N+]([O-])c1ccc2c(c1)nnn2O,inactive: 0.899%
16,CN(C(=O)Cc1ccccc1)[C@@H]1CC[C@]2(CCCO2)C[C@H]1N1CCCC1,inactive: -4.68%
17,CCOP1(=S)c2c(C)nn(CCC#N)c2N=C(c2ccc(F)cc2)N1C (centres undefined),inactive: 8.93%
18,N#CCCN(C(=O)COC(=O)C(O)(c1ccccc1)c1ccccc1)c1ccc(F)cc1,inactive: -4.98%
19,NC(=O)Nc1ccc([As](=O)(O)O)cc1,inactive: -4.79%
20,O=C(O)COc1ccc([As](=O)(O)O)cc1[N+](=O)[O-],inactive: 7.74%
21,Nc1ccccc1[As](=O)(O)c1ccccc1,inactive: -1.77%
22,CS(=O)(=O)c1cc([N+](=O)[O-])c2no[n+]([O-])c2c1,inactive: 42.3%

row,SMILES,inhibition
1,O=P(Nc1nccs1)(c1ccccc1)c1nc2ccccc2s1 (centres undefined),inactive: -0.818%
2,O=P(Nc1nccs1)(Oc1ccccc1)Oc1ccccc1,inactive: 23.8%
3,CCOP1(=S)c2c(C)nn(CCC#N)c2N=C(c2ccccc2F)N1C (centres undefined),inactive: -0.44%
4,COc1cc(C2NCCC3(OCCO3)C2(C)C)cc(OC)c1OC (centres undefined),inactive: 0.423%
5,CCCOP(=S)(Nc1nc(N)cc(=O)[nH]1)OCCC,inactive: 2.43%
6,Nc1cccc2c([As](=O)(O)O)cccc12,inactive: -1.03%
7,Cc1ccc(NCCc2c([N+](=O)[O-])cc([N+](=O)[O-])cc2[N+](=O)[O-])cc1,inactive: 1.19%
8,O=[As](O)(c1cccc(O)c1)c1cccc(O)c1,inactive: -0.45%
9,Cc1cccc(OCC(=O)OC2CN3CCC2CC3)c1 (centres undefined),inactive: 19.1%
10,CS(=O)(=O)c1ccc(Cl)c(NC(=O)COC(=O)C(O)(c2ccccc2)c2ccccc2)c1,inactive: 9.12%
11,COc1cc(C(=O)NCC2(N3CCOCC3)CCCCC2)cc(Cl)c1OC(C)C,inactive: 1.06%
12,O=[As](O)(O)c1cccnc1,inactive: -6.15%
13,O=C(OC1CN2CCC1CC2)c1ccc(Cl)cc1 (centres undefined),inactive: -3.07%
14,COc1ccc(N/C(=N/P(=O)(N2CCOCC2)N2CCOCC2)N2CCOCC2)cc1,inactive: -6.07%
15,O=[N+]([O-])c1cc(Oc2ccc([N+](=O)[O-])cc2C(F)(F)F)cc([N+](=O)[O-])c1,inactive: 6.1%
16,COc1cc(I)ccc1[As](=O)(O)O,inactive: -16.6%
17,COc1ccc2nc(NP(=O)(c3ccccc3)c3ccccc3)sc2c1,inactive: -0.214%
18,O=P1(N(CCCl)CCCl)Nc2ccccc2N1,inactive: -6.14%
19,O=P1(N(CCCl)CCCl)OCCCN1CCCl (centres undefined),inactive: 12.6%
20,O=C(OC1CN2CCC1CC2)C12CC3CC(CC(C3)C1)C2 (centres undefined),inactive: -8.11%
